Tests used:
[1] = system: A. baumannii; experiment: Growth inhibition (broth microdilution), A. baumannii; type: cell-based, Acinetobacter baumannii; details: ratio of HD50 to MIC50, A. baumannii
Source text: (§1) The antimicrobial activity of each peptide can be tested following standard broth microdilution protocols recommended by the National Committee for Clinical Laboratory Standard. Multidrug-resistant Staphylococcus aureus strain (ATCC BAA-44) and Acinetobacter baumannii (ATCC BAA-747) can be used in this study, as well as Ampicillin- and streptomycin-resistant Escherichia coli (D31), obtained from the E. coli Genetic Resource Center (Yale University, New Haven, Conn.). Bacteria can be grown overnight in Tryptic Soy broth at 37° C. Then, cultures are diluted in Mueller-Hinton broth to a final concentration range of 2×10^4 to 2×10^5 CFU/ml. Bacterial inocula are incubated at 37° C. in phosphate-buffered saline (PBS) buffer (pH7.2) with various dilutions of peptide stock. The 18-hour absorbance data are used to calculate the percentage of inhibition for each sample by comparison with the absorbance of cultures without sample. Bacterial growth is measured by turbidity as optical density at 600 nm (OD600), using a Genesys 5 Spectrophotometer (Rochester, N.Y.) or equivalent instrument. All assays can be carried out in triplicate. The concentration of peptide that results in 50% inhibition of growth is recorded as the IC50. In addition the concentration of agents needed can be monitored to reduce the bacterial population by three logs, IC99.9. This is a more rigorous indicator of the amount needed to prevent an infection.
(§2) The antimicrobial activity of each triazine compound was tested by following standard broth microdilution protocols recommended by the National Committee for Clinical Laboratory Standard. All compounds were initially tested against Bacillus subtilis (ATCC 6633; Rockville, Md.). Bacteria were grown in Mueller Hinton Broth (MHB) at 37° C. for overnight. Then, cultures were diluted in MHB to a final concentration of 2×10^4 to 2×10^5 CFU/mL. Bacterial inocula were incubated at 37° C. in PBS buffer (pH 7.2) with varying concentrations of 2-fold dilution of triazine stocks. The 18-hour absorbance data were used to calculate the percent inhibition for each sample by comparing with the absorbance of cultures without triazine compounds. Bacterial growth was measured by turbidity as optical density at 600 nm using a Genesys 5 Spectrophotometer (Rochester, N.Y.).

[2] = system: S. aureus; experiment: Growth inhibition (broth microdilution), S. aureus; type: cell-based, Staphylococcus aureus; details: for HI: ratio of HD50 to MIC50, S. aureus; for S. aureus HI: Table 3, ratio of HD50 to IC50
Source text: as §1, §2

[3] = system: B. subtilis; experiment: Growth inhibition (broth microdilution), B. subtilis; type: cell-based, Bacillus subtilis; details: Table 3; ratio of HD50 to IC50
Protocol: as §2

NCCCCNc1nc(NCc2ccccc2)nc(NCc2cccc3ccccc23)n1 [TN5]
HI [1]: 55.83 | HI [2]: 28.39

CCCCN(CCCC)CCCNc1nc(NCc2ccccc2)nc(Nc2cccc3ccccc23)n1 [TN2]
HI [1]: 65.7 | HI [2]: 69.5

CCCCN(CCCC)CCCNc1nc(NCc2ccccc2)nc(NCc2cccc3ccccc23)n1 [TN4]
HI [1]: 0.73 | HI [2]: 3.25

CCCCN(CCCC)CCCNc1nc(NCCc2c[nH]c3ccccc23)nc(NCCc2c[nH]c3ccccc23)n1 [TZ-WK(Bu)2W]
S. aureus HI [2]: 50.8 | B. subtilis HI [3]: 91.5

NCCCNc1nc(NCCc2c[nH]c3ccccc23)nc(NCCc2c[nH]c3ccccc23)n1 [TZ-WKW]
S. aureus HI [2]: 19.1 | B. subtilis HI [3]: 43.3

NCCCCNc1nc(NCc2ccccc2)nc(Nc2cccc3ccccc23)n1 [TN3]
HI [1]: 17.8 | HI [2]: 18

N=C(N)NCCNc1nc(NCCc2c[nH]c3ccccc23)nc(NCCc2c[nH]c3ccccc23)n1 [TZ-WRW]
S. aureus HI [2]: 13.2 | B. subtilis HI [3]: 15

Source: patent publication US9273015B2, “s-Triazine compounds, pharmaceutical compositions and methods of using the same” (NEW YORK UNIVERSITY, priority 2010, dated 2016)
